The record followed here is ChEMBL document CHEMBL2157983 (Bioorg Med Chem Lett, 2011).

This test relates to Trypanosoma brucei. Put plainly: Activity of Trypanosoma brucei NTR assessed as NADH oxidation per mg of protein. Put shortly:
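Substrate activity reported as the initial velocity of NADH oxidation (nmol/min/mg) with either E. coli nfsB or T. brucei nitroreductase (TbNTR). The reaction was followed by the change in absorbance at 340 nm.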

As for `O=C(OCc1ccc([N+](=O)[O-])cc1)N(CCCl)CCCl`, the Activity amounted to 1120 nmol/min.
